Data as given in PubChem BioAssay AID624099 (ICCB-Longwood, 2012)

- Aim: 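Knock-downs relieving repression by E2 of an HPV18 LCR luciferase reporter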 (primary screen)
- Cells: human C33A cervical carcinoma cells (HPV-negative) stably expressing BPV1 E2 and an HPV18 LCR luciferase reporter
- Reagent: siRNA pool against human genes, 40 nM
- Duration: 72 h
- Measured: 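HPV18 LCR reporter light per well, converted to plate-wise z-scores that exclude control wells, and averaged over triplicate plates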
- Direction: mean z-score and z-score: higher = stronger reporter signal, weaker E2 silencing
- Hit rule: 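Hit if mean z-score reaches 2 and two or more of three replicate z-scores also reach 2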
In all, the deposit lists about 21,000 reagents; below is a random part of them. In the full data, 497 (2.4%) got an active call. 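Higher z means weaker E2 silencing; only reporter increases were scored, and knock-downs that hurt cell survival may mask genuine repressor factors.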 Unmarked entries are inactive. The numbers tell different reagents against one gene apart.

How did the screen score LOC339077 (retired record)?
mean z-score: -2.61; z-score, replicate A: -2.21; z-score, replicate B: -2.76; z-score, replicate C: -2.86

For SWI5, how do the results read?
mean z-score: -1.56; z-score, replicate A: -1.58; z-score, replicate B: -1.37; z-score, replicate C: -1.74

With KIAA1210, what does the deposit list?
mean z-score: -0.92; z-score, replicate A: -0.89; z-score, replicate B: -1.04; z-score, replicate C: -0.82

How did the screen score ATAD2?
mean z-score: -0.79; z-score, replicate A: -0.66; z-score, replicate B: -0.44; z-score, replicate C: -1.27

With GRIA2, what does the deposit list?
mean z-score: -0.84; z-score, replicate A: -0.86; z-score, replicate B: -1.06; z-score, replicate C: -0.58

With TMEM61, what does the deposit list?
mean z-score: -0.62; z-score, replicate A: -0.24; z-score, replicate B: -0.93; z-score, replicate C: -0.7

For LOC401819 (retired record), what does the deposit list?
mean z-score: -0.11; z-score, replicate A: -0.07; z-score, replicate B: -0.29; z-score, replicate C: 0.03

What did the screen give for ERVFRD-2?
mean z-score: -1.45; z-score, replicate A: -1.9; z-score, replicate B: -1.39; z-score, replicate C: -1.06

With IGSF11, how do the results read?
mean z-score: -0.29; z-score, replicate A: -0.59; z-score, replicate B: -0.17; z-score, replicate C: -0.12

For EXOSC9, how do the results read?
mean z-score: -0.15; z-score, replicate A: -0.16; z-score, replicate B: 0.06; z-score, replicate C: -0.34

With TRIM42, what does the deposit list?
mean z-score: 0.84; z-score, replicate A: 1.16; z-score, replicate B: 0.61; z-score, replicate C: 0.74

With RCC1L, what was measured?
mean z-score: 0.4; z-score, replicate A: 0.52; z-score, replicate B: 0.54; z-score, replicate C: 0.15

For CAMK2N1, how do the results read?
mean z-score: 1.31; z-score, replicate A: 1.58; z-score, replicate B: 1.57; z-score, replicate C: 0.77

What is on record for MGST2?
mean z-score: 1.79; z-score, replicate A: 1.76; z-score, replicate B: 1.94; z-score, replicate C: 1.68

How did the screen score CTU2?
mean z-score: -1.99; z-score, replicate A: -1.94; z-score, replicate B: -2.07; z-score, replicate C: -1.98

With FLJ10246 (retired record), what does the deposit list?
mean z-score: -0.04; z-score, replicate A: -0.13; z-score, replicate B: 0.1; z-score, replicate C: -0.09

What is on record for ACOX1?
mean z-score: 0.78; z-score, replicate A: 0.6; z-score, replicate B: 0.74; z-score, replicate C: 1

Which result is listed for NAB2?
mean z-score: 0.23; z-score, replicate A: 0.24; z-score, replicate B: 0.26; z-score, replicate C: 0.2

With TOR1AIP2 #1, what does the deposit list?
mean z-score: 0.81; z-score, replicate A: 0.71; z-score, replicate B: 0.78; z-score, replicate C: 0.95

What is on record for TOR1AIP2 #2?
mean z-score: -0.13; z-score, replicate A: 0.36; z-score, replicate B: -0.75; z-score, replicate C: 0.01

Which result is listed for DOC2B?
mean z-score: 1.68; z-score, replicate A: 1.72; z-score, replicate B: 1.76; z-score, replicate C: 1.56

How did the screen score DUOXA1?
mean z-score: -0.1; z-score, replicate A: -0.38; z-score, replicate B: 0.2; z-score, replicate C: -0.13

What did the screen give for WNT8A?
mean z-score: -1.12; z-score, replicate A: -1.34; z-score, replicate B: -0.94; z-score, replicate C: -1.08

With UBASH3B, what was measured?
mean z-score: 0.63; z-score, replicate A: 0.59; z-score, replicate B: 0.5; z-score, replicate C: 0.8

What did the screen give for C14orf180?
mean z-score: -1.18; z-score, replicate A: -1.19; z-score, replicate B: -1.3; z-score, replicate C: -1.04

How did the screen score AWAT1?
mean z-score: 2.65 (active); z-score, replicate A: 2.48; z-score, replicate B: 2.78; z-score, replicate C: 2.69

What did the screen give for KYNU?
mean z-score: 0; z-score, replicate A: 0.14; z-score, replicate B: 0.23; z-score, replicate C: -0.36
